Results as given in PubChem BioAssay AID686976 (The Scripps Research Institute Molecular Screening Center, 2013).
The entries are a selection whose mix differs from that of the whole data set. Calls of active or inactive are those of the source. Cut-off read from the data, not from the text of the source: active = inhibition above about 30%; inactive = the rest.

The compounds below were run on CCHF virus ovarian tumor domain protease (vOTU, L protein) (assay: CCHFV vOTU protease inhibitors, confirmation, biochemical, Pep-AMC substrate, fluorescence (AID 686976)). Conditions: Recombinant CCHFV vOTU, at 11.5 µM, stronger effect = higher value.
With O=[N+]([O-])c1cc([N+](=O)[O-])c(Nc2ccccn2)c([N+](=O)[O-])c1 the inhibition was inactive: 14.5%. Cc1nc2ccc3ccccc3c2s1.O=[N+]([O-])c1cc([N+](=O)[O-])c(O)c([N+](=O)[O-])c1 was tested, and the inhibition was inactive: -10.7%. CC(C)(C)c1ccc(OP(C)(=O)Nc2ccc(SC(F)(F)F)cc2)cc1 (stereo not drawn) was tested, and the inhibition was inactive: -2.23%.
